Compound potency records, mixed from different reports. Data source: NIAID ChemDB in PubChem.

All rows: whole-cell or culture tests; agent: HIV-1; method: syncytia; measure: fold resistance

Blank or dashed fields: not listed here. Fold resistance has wild type as its base. Rows are shuffled and stem from different studies.

SMILES | strain or isolate | changes | cell line | value
CC(C)=CCOc1cc(NC(=S)c2ccoc2C)ccc1Cl | IIIB | RT-Y188H | CEM | 5
Cc1ccoc1C(=S)Nc1ccc(Cl)c(C(=O)OC(C)C)c1 |  | RT-E138K | CEM | 38.7
C=C(C)[C@@H]1CC[C@]2(C(=O)NCCCCCCCC(=O)N[C@@H](CC(C)C)[C@@H](O)CC(=O)O)CC[C@]3(C)[C@H](CC[C@@H]4[C@@]5(C)CC[C@H](O)C(C)(C)[C@@H]5CC[C@]43C)[C@@H]12 | LAI-R(GP41-R22A) | R22A | HeLa P4 + HeLa | 1
CSc1ccc(NC(=S)OC(C)C)cc1C(=O)OC(C)C |  | RT-L100I | CEM | 21.3
CC(C)OC(=O)c1cc(NC(=S)c2ccccc2N)ccc1Cl |  | RT-E138K | CEM | 44
CCCCC(CC)COC(=O)c1cc(NC(=S)OC(C)C)ccc1Cl |  | RT-V106A | CEM | 125
C=C(C)[C@@H]1CC[C@]2(C(=O)NCCCCCCCC(=O)N[C@@H](CC(C)C)[C@@H](O)CC(=O)O)CC[C@]3(C)[C@H](CC[C@@H]4[C@@]5(C)CC[C@H](O)C(C)(C)[C@@H]5CC[C@]43C)[C@@H]12 | LAI | GP41-L91H | HeLa P4 + HeLa | >200
CC1=C(C(=O)Nc2cc(C(=O)OC(C)C)c(F)cc2F)SCCO1 | PYR-resistant (RT Y181C) | RT-Y181C | CEM | >11.8
Cc1ccsc1C(=O)Nc1ccc(Cl)c(C(=O)OC2CCCCC2)c1 |  | RT-V106A | CEM | 36.4
CC(C)=CCOc1cc(NC(=S)c2ccoc2C)ccc1Cl | IIIB | RT-Y188L | CEM | 16.7
Cc1ccccc1C(=S)Nc1ccc(Cl)c(C(=O)OC(C)C)c1 |  | RT-Y181C | CEM | 29.2
CN1CCN(C(=O)c2ccc3c(=O)c4ccccc4[nH]c3c2)CC1 | Nevirapine-resistant (RT V106A) | RT-V106A | CEM | 92.9
CCOCn1c(Sc2ccccc2)c(C(C)C)c(=O)[nH]c1=O | IIIB | RT-E138K | CEM | 18
CC(C)OC(=S)Nc1ccc(Cl)c(C(=O)OCC[Si](C)(C)C)c1 |  | RT-E138K | CEM | 35
C/C=C/COc1cc(NC(=S)c2ccoc2C)ccc1Cl |  | RT-V106A | CEM | 85
CC(C)=CCOc1cc(NC(=S)c2ccoc2C)ccc1Cl | IIIB | RT-Y188L | CEM | 166.7
COC(=O)c1cc(NC(=O)C2=C(C)OCCS2)ccc1Cl | Nevirapine-resistant (RT V106A) | RT-V106A | CEM | >2.5
CC(C)OC(=S)Nc1ccc(Cl)c(C(=O)OCC2CC2)c1 |  | RT-E138K | CEM | 15
O=S(=O)(Cc1ccccc1I)c1cccc[n+]1[O-] | IIIB | RT-E138K | CEM | 1.875
CC(C)OC(=O)c1cc(NC(=S)c2ccsc2)ccc1Cl |  | RT-Y181C | CEM | 16.9
CC1=C(C(=O)Nc2ccc(Cl)c(OCC=C(Cl)Cl)c2)SCCO1 | TIBO R82913-resistant (RT K103N) | RT-K103N | CEM | 1.67
Cc1occc1C(=O)Nc1ccc(Cl)c(/C=N/N(C)C)c1 | HEPT-resistant (RT Y188L) | RT-Y188L | CEM | <8.89
C=CCSc1cc(NC(=S)OC(C)C)ccc1Cl |  | RT-E138K | CEM | 2.26
Cn1cccc1C(=S)Nc1ccc(Cl)c(/C=N/OC(C)(C)C)c1 |  | RT-V106A | CEM | 3.46
CC(C)OC(=O)c1cc(NC(=O)OCC2CC2)ccc1Cl |  | RT-L100I | CEM | 8.89
Cc1ccsc1C(=S)Nc1ccc(Cl)c(C(=O)OC2CCCCC2)c1 |  | RT-Y181C | CEM | 3.87
COC(=O)c1cc(NC(=S)OC(C)C)ccc1Cl |  | RT-E138K | CEM | 15
Cc1occc1C(=S)Nc1ccc(Cl)c(SCC=C(Cl)Cl)c1 | TSAO-m3T-resistant (RT E138K) | RT-E138K | CEM | 6
CCOCn1c(Cc2ccccc2)c(CC)c(=O)[nH]c1=O | IIIB | RT-Y181C | CEM | 75
CC1=C(C(=O)Nc2ccc(Cl)c(C(=O)OC(C)C)c2)SCCO1 |  | RT-V106A | CEM | >1330
O=C(Nc1ccc(Cl)c(C(=O)OC2CCCCC2)c1)c1ccccc1F |  | RT-V106A | CEM | 3.31
CC1=C(C(=O)Nc2ccc(Cl)c(C(=O)OC3CCCC3)c2)SCCO1 | TIBO-resistant (RT L100I) | RT-L100I | CEM | 125
COc1ccccc1C(=S)Nc1ccc(Cl)c(C(=O)OC(C)C)c1 |  | RT-V106A | CEM | 46
Cc1ccc(C)c(CS(=O)(=O)c2cccc[n+]2[O-])c1 | IIIB | RT-Y181C | CEM | 3.77
Cc1occc1C(=S)Nc1ccc(Cl)c(/C=N/OCc2ccccc2)c1 |  | RT-E138K | CEM | ≥3.33
Cc1occc1C(=S)Nc1ccc(Cl)c(OCC=C(Cl)Cl)c1 | TIBO R82913-resistant (RT K103N) | RT-K103N | CEM | 32.9
CC(C)c1c(Sc2ccccc2)n(COCc2ccccc2)c(=O)[nH]c1=O | IIIB | RT-Y181C | CEM | 100
Cc1occc1C(=S)Nc1ccc(Cl)c(C(=O)OC(C)C)c1 |  | RT-V106A | CEM | 85
CC(C)OC(=O)c1cc(NC(=S)OC(C)(C)C)ccc1Cl |  | RT-L100I | CEM | ≥16.7
CC1=C(C(=O)Nc2ccc(Cl)c(C(=O)OCC3CCC3)c2)SCCO1 | TIBO-resistant (RT L100I) | RT-L100I | CEM | 22.4
CCc1c(Sc2cc(C)cc(C)c2)n(COCCO)c(=O)[nH]c1=O | IIIB | RT-Y188H | CEM | ≥3330
Cc1ccsc1C(=S)Nc1ccc(Cl)c(/C=N/OC(C)(C)C)c1 |  | RT-L100I | CEM | 20
Cc1occc1C(=S)Nc1ccc(Cl)c(/C=N/OC(C)(C)C)c1 | IIIB | RT-Y188H | CEM | 4.5
C=CCOc1cc(NC(=S)OC(C)C)ccc1Cl |  | RT-E138K | CEM | 7140
CC(C)=CCOc1cc(NC(=S)c2ccsc2C)ccc1Cl |  | RT-L100I | CEM | 1.89
CC(C)OC(=S)Nc1ccc(Cl)c(C(=O)OC(C(C)C)C(C)C)c1 |  | RT-V106A | CEM | ≥14.3
Cc1sccc1C(=S)Nc1ccc(Cl)c(OCCC(C)C)c1 |  | RT-V106A | CEM | 8.45
O=C(Nc1ccc(Cl)c(C(=O)OC2CCCCC2)c1)c1ccccc1F | IIIB | RT-L100I | CEM | 16.7
CCOC(=O)COc1cc(NC(=S)OC(C)C)ccc1Cl |  | RT-L100I | CEM | 12.8
CCCCCCCCCC[N+](C)(C)CCCNCc1c(O)cc2c(c1O)-c1cc(ccc1O)[C@H]1NC(=O)[C@@H]3NC(=O)C4NC(=O)[C@@H](Cc5ccc(c(Cl)c5)Oc5cc3cc(c5O)Oc3ccc(cc3Cl)[C@@H](O)[C@H](NC1=O)C(=O)N[C@@H]2C(=O)O)NC(=O)[C@H](N)c1ccc(O)c(c1)Oc1cc(O)cc4c1 | RT-K188H | RT-Y188H | CEM | 2.14
CCCOC(=O)c1cc(NC(=S)OC(C)C)ccc1Cl |  | RT-Y181C | CEM | 180
Cc1occc1C(=S)Nc1ccc(Cl)c(OCCC(C)C)c1 |  | RT-K103N | CEM | 21.4
CCCOC(=O)c1cc(NC(=O)C2=C(C)OCCS2)ccc1Cl | TIBO-resistant (RT L100I) | RT-L100I | CEM | 95
COc1ccc(NC(=S)C2=C(C)OCCS2)cc1OCC=C(Cl)Cl | TIBO R82150-resistant (RT L100I) | RT-L100I | CEM | 6.67
C/C=C/COc1cc(NC(=S)c2ccn(C)c2C)ccc1Cl |  | RT-E138K | CEM | 25.9
CCCCCCCCCC[N+](C)(C)CCCNCc1c(O)cc2c(c1O)-c1cc(ccc1O)[C@H]1NC(=O)[C@@H]3NC(=O)C4NC(=O)[C@@H](Cc5ccc(c(Cl)c5)Oc5cc3cc(c5O)Oc3ccc(cc3Cl)[C@@H](O)[C@H](NC1=O)C(=O)N[C@@H]2C(=O)O)NC(=O)[C@H](N)c1ccc(O)c(c1)Oc1cc(O)cc4c1 |  | RT-L100I | CEM | 1.89
C=C(Cl)COc1cc(NC(=S)c2ccoc2C)ccc1C | TIBO R82150-resistant (RT L100I) | RT-L100I | CEM | 10.6
COc1ccc(C)cc1CS(=O)(=O)c1cccc[n+]1[O-] | IIIB | RT-Y181C | CEM | 8.47
CC(C)OC(=O)c1cc(NC(=S)OC(C)C)ccc1Cl | IIIB | RT-V179D | CEM | 11
CCCCOC(=O)c1cc(NC(=S)OC(C)C)ccc1Cl |  | RT-V106A | CEM | 17.5
CC1=C(C(=O)Nc2cc(C(=O)OC(C)C)c(Cl)cc2F)SCCO1 | Nevirapine-resistant (RT V106A) | RT-V106A | CEM | >15.4
C=CCOC(=O)c1cc(NC(=S)OC(C)C)ccc1Cl |  | RT-E138K | CEM | 3.5
C=C(Cl)COc1cc(NC(=S)c2ccsc2C)ccc1C#N | Pyridone-resistant (RT Y181C) | RT-Y181C | CEM | 14.7
CC1=C(C(=S)Nc2ccc(Cl)c(C=NOC(C)(C)C)c2)CCCO1 |  | RT-K103N | CEM | 6.17
C/C=C\COc1cc(NC(=S)OC(C)C)ccc1Cl |  | RT-L100I | CEM | 125
CO/N=C/c1cc(NC(=S)c2ccoc2C)ccc1OC |  | RT-V106A | CEM | 20
CCCSC(=Nc1ccc(Cl)c(C(=O)OC(C)C)c1)OC(C)C |  | RT-V106A | CEM | >15.3
Cc1occc1C(=S)Nc1ccc(Cl)c(C(=O)OC(C)C2CC2)c1 |  | RT-L100I | CEM | 70.8
CC(C)OC(=S)Nc1ccc(Cl)c(COC(C)(C)C)c1 |  | RT-Y181C | CEM | >2.22

6 of the rows above, restated:

SMILES | strain or isolate | changes | cell line | value
CC1=C(C(=O)Nc2cc(C(=O)OC(C)C)c(Cl)cc2F)SCCO1 | Nevirapine-resistant (RT V106A) | RT-V106A | CEM | >15.4
CCCCC(CC)COC(=O)c1cc(NC(=S)OC(C)C)ccc1Cl |  | RT-V106A | CEM | 125
CC(C)=CCOc1cc(NC(=S)c2ccoc2C)ccc1Cl | IIIB | RT-Y188L | CEM | 166.7
COC(=O)c1cc(NC(=O)C2=C(C)OCCS2)ccc1Cl | Nevirapine-resistant (RT V106A) | RT-V106A | CEM | >2.5
CC1=C(C(=O)Nc2ccc(Cl)c(OCC=C(Cl)Cl)c2)SCCO1 | TIBO R82913-resistant (RT K103N) | RT-K103N | CEM | 1.67
C=C(Cl)COc1cc(NC(=S)c2ccoc2C)ccc1C | TIBO R82150-resistant (RT L100I) | RT-L100I | CEM | 10.6